# PubChem BioAssay AID1259414 – Drosophila RNAi Screening Center, 2018
# Assay: 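Fly genes that alter Wolbachia amount inside host cells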 (primary screen)
# Cells: Drosophila JW18 cells infected with Wolbachia
# Reagent: long dsRNA against Drosophila genes, 0.25 µg dsRNA per well of a 384-well plate
# Timing: 5 days
# Treatment: cells persistently infected with Wolbachia before knock-down; no added drug
# Read-out: 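Imaged fluorescence in situ signal for Wolbachia 23S rRNA per DAPI-counted host cell, given as a robust z-score within each plate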
# Direction: Wolbachia per cell robust z: higher = more Wolbachia per host cell than the plate typical
# Rule for the call: 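Hit when robust z is 1.5 or more, or -1.5 or less, in at least two of three replicates; excludes dsRNAs with several or no targets, genes not expressed in JW18 and well A1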
# The deposit covers about 24,000 reagents; shown is an unselected part of those that have a named target and a result. In the full data, about 1,210 (5%) got an active call. 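Inactive calls also include excluded dsRNAs with several or no targets, genes unexpressed in JW18, and well A1, regardless of score.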 Names joined by + are all predicted targets of the reagent.
gene knocked down,amplicon,"Wolbachia per cell robust z, rep 1","Wolbachia per cell robust z, rep 2","Wolbachia per cell robust z, rep 3",Outcome
CG3328,DRSC04357,-1.12,-0.617,-1.64,inactive
CG3328,DRSC25998,0.113,-0.604,0.471,inactive
Cyp6g1 (Cytochrome P450 6g1),DRSC07386,0.548,0.498,0.663,inactive
Cyp6g1 (Cytochrome P450 6g1),DRSC41539,-0.398,-0.179,-1.38,inactive
Gr58a (Gustatory receptor 58a),DRSC03910,-0.186,0.989,0.419,inactive
Rab3GAP1 (RAB3 GTPase activating protein subunit 1),DRSC00291,1.4,0.529,0.675,inactive
Rab3GAP1 (RAB3 GTPase activating protein subunit 1),DRSC00703,-0.215,0.0271,-0.787,inactive
Rab3GAP1 (RAB3 GTPase activating protein subunit 1),DRSC28988,1.03,0.25,1.12,inactive
CG15754,DRSC19719,0.719,1.23,0.0072,inactive
CG15754,DRSC25209,-0.281,0.898,-4.1,inactive
CrzR (Corazonin receptor),DRSC09781,-2.57,-0.781,-0.657,inactive
CrzR (Corazonin receptor),DRSC09782,-1.1,-5.32,-0.25,inactive
CG13243,DRSC01920,0.627,1.44,0.775,inactive
dmrt99B (doublesex-Mab related 99B),DRSC22977,0.662,-1.57,0.207,inactive
dmrt99B (doublesex-Mab related 99B),DRSC25777,-0.0274,-0.149,-1.1,inactive
CG1344,DRSC04837,0.419,-0.367,0.72,inactive
Taf4 (TBP-associated factor 4),DRSC11297,-1.25,0.325,-1.23,inactive
Taf4 (TBP-associated factor 4),DRSC25921,-0.0465,2.23,1.86,active
CG34223,DRSC38881,-1.04,-0.503,-0.198,inactive
Trxr2 (Thioredoxin reductase 2),DRSC11900,0.543,0.544,1.01,inactive
Trxr2 (Thioredoxin reductase 2),DRSC25519,0.504,-0.443,-0.769,inactive
snoRNA:Me28S-G2743 (retired record) + CG31910,DRSC00946,-0.651,-0.782,-0.181,inactive
CG9997,DRSC16591,0.581,-0.925,-0.0323,inactive
CG9997,DRSC29613,-0.797,-1.29,-0.841,inactive
CG31515,DRSC13610,0.471,1.62,0.461,inactive
lov (jim lovell),DRSC04665,-0.326,-0.195,-5.18,inactive
lov (jim lovell),DRSC27208,0.717,-0.231,0.963,inactive
sbm (sobremesa),DRSC20185,-0.292,0.327,0.262,inactive
Zcchc7 (Zinc finger CCHC-type containing 7),DRSC11099,-0.295,-0.057,-0.806,inactive
Zcchc7 (Zinc finger CCHC-type containing 7),DRSC25470,0.79,2.97,1.81,active

Laid out differently: results already given
{"gene knocked down":"Cyp6g1 (Cytochrome P450 6g1)","amplicon":"DRSC41539","Wolbachia per cell robust z, rep 1":-0.398,"Wolbachia per cell robust z, rep 2":-0.179,"Wolbachia per cell robust z, rep 3":-1.38,"Outcome":"inactive"}
{"gene knocked down":"Gr58a (Gustatory receptor 58a)","amplicon":"DRSC03910","Wolbachia per cell robust z, rep 1":-0.186,"Wolbachia per cell robust z, rep 2":0.989,"Wolbachia per cell robust z, rep 3":0.419,"Outcome":"inactive"}
{"gene knocked down":"Rab3GAP1 (RAB3 GTPase activating protein subunit 1)","amplicon":"DRSC00291","Wolbachia per cell robust z, rep 1":1.4,"Wolbachia per cell robust z, rep 2":0.529,"Wolbachia per cell robust z, rep 3":0.675,"Outcome":"inactive"}

The listing continues:
gene knocked down,amplicon,"Wolbachia per cell robust z, rep 1","Wolbachia per cell robust z, rep 2","Wolbachia per cell robust z, rep 3",Outcome
CG18596,DRSC15355,1.01,1.92,1.4,inactive
CG14034,DRSC02359,0.0512,1.03,-1.77,inactive
GstT3 (Glutathione S transferase T3),DRSC20541,-2.05,-1.8,-3.67,active
CG11788,DRSC06084,-3.75,-0.128,0.513,inactive
Calx (Na/Ca-exchange protein),DRSC13457,-0.696,-0.62,-2.98,inactive
Calx (Na/Ca-exchange protein),DRSC13459,-1.42,-0.455,-9.97,inactive
Calx (Na/Ca-exchange protein),DRSC16599,-1.93,-5.39,-0.798,inactive
Calx (Na/Ca-exchange protein),DRSC21850,-2.43,-1.5,-1.21,inactive
Calx (Na/Ca-exchange protein),DRSC24386,0.359,1.79,1.84,inactive
CG11068,DRSC19369,0.905,0.44,1.21,inactive
P58IPK,DRSC16404,-1.19,-0.182,0.0789,inactive
P58IPK,DRSC27012,0.377,-0.44,-0.734,inactive
"Grx1t (Glutaredoxin 1, testis-specific)",DRSC04530,-1.63,-1.21,-0.321,inactive
"Grx1t (Glutaredoxin 1, testis-specific)",DRSC28633,0.585,-0.053,0.83,inactive
Schip1 (Schwannomin interacting protein 1),DRSC02851,-5.35,0.127,0.376,inactive
Schip1 (Schwannomin interacting protein 1),DRSC28775,0.715,-0.154,0.938,inactive
CG16717,DRSC10221,-3.34,1.06,1.08,inactive
CG16717,DRSC29511,-0.264,1.12,-5.65,inactive
CG34174 + daed,DRSC27640,-1.25,-1.87,0.0746,inactive
CG14659,DRSC12245,0.249,1.03,0.634,inactive
Syx18 (Syntaxin 18),DRSC14628,-6.93,-0.63,0.471,inactive
nrv1 (nervana 1),DRSC03382,-1.47,0.18,-1.87,inactive
CG32199,DRSC09990,0.778,0.918,0.183,inactive
vanin-like,DRSC17440,1.96,-6.77,0.36,inactive
CG44249 + Snp,DRSC21538,0.934,0.498,-1.19,inactive
CG9265,DRSC03178,0.31,0.428,-0.253,inactive
CG9265,DRSC03179,-1.31,-0.983,-0.051,inactive
CG31910,DRSC28186,0.547,0.721,-0.0736,inactive
CG12093,DRSC08252,-0.531,-2.32,-0.718,inactive
Tim17b (Translocase of the inner mitochondrial membrane 17b),DRSC37747,0.509,-6.16,-0.394,inactive
Agxt (Alanine-glyoxylate aminotransferase),DRSC18718,0.387,0.45,0.0829,inactive
Agxt (Alanine-glyoxylate aminotransferase),DRSC26115,-0.352,0.758,-1.39,inactive
Atg8a (Autophagy-related 8a),DRSC18024,0.424,0.656,0.623,inactive
Atg8a (Autophagy-related 8a),DRSC24298,0.427,-0.539,0.661,inactive
CG13634,DRSC14635,-0.0641,0.193,-0.0718,inactive
Polr1H (RNA polymerase I subunit H),DRSC14594,-4.92,0.327,3.27,inactive
Polr1H (RNA polymerase I subunit H),DRSC28980,1.83,-0.111,-0.138,inactive
Polr1H (RNA polymerase I subunit H),DRSC41617,-1.21,0.793,0.399,inactive
